In paper PMC9951321:

Test: CD spectroscopy of peptide with LPS
Conditions: CONTIN method, peptide 0.1 mmol L^−1, LPS 25 µmol L^−1

## CC[C@H](C)[C@H](NC(=O)[C@@H](N)CCCNC(=N)N)C(=O)N[C@@H](CCCCN)C(=O)N[C@H](C(=O)N[C@@H](C)C(=O)N[C@H](C(=O)N[C@@H](Cc1c[nH]c2ccccc12)C(=O)N[C@@H](CCCNC(=N)N)C(=O)N[C@@H](CC(C)C)C(=O)N[C@@H](C)C(=O)N[C@@H](CC(C)C)C(=O)N[C@@H](CCCNC(=N)N)C(=O)N[C@@H](Cc1c[nH]c2ccccc12)C(=O)N[C@@H](CC(C)C)C(=O)N[C@@H](CCCCN)C(=O)N[C@@H](CC(C)C)C(=O)O)[C@@H](C)O)[C@@H](C)O [KTA] (H-RIKTATWRLALRWLKL-OH)
  Increase of helical content in the presence of LPS: 32.2%

## CC[C@H](C)[C@H](NC(=O)[C@@H](N)CCCNC(=N)N)C(=O)N[C@@H](CCCCN)C(=O)N[C@H](C(=O)N[C@@H](CCCNC(=N)N)C(=O)N[C@H](C(=O)N[C@@H](Cc1c[nH]c2ccccc12)C(=O)N[C@@H](CCCNC(=N)N)C(=O)N[C@@H](CC(C)C)C(=O)N[C@@H](C)C(=O)N[C@@H](CC(C)C)C(=O)N[C@@H](CCCNC(=N)N)C(=O)N[C@@H](Cc1c[nH]c2ccccc12)C(=O)N[C@@H](CC(C)C)C(=O)N[C@@H](CCCCN)C(=O)N[C@@H](CC(C)C)C(=O)O)[C@@H](C)O)[C@@H](C)O [KTR] (H-RIKTRTWRLALRWLKL-OH)
  Increase of helical content in the presence of LPS: 16.4%

Where a SMILES comes first, the peptide text is derived from it.
